Pooled drug test results. Numbers come from NIAID ChemDB, via PubChem.

All rows: whole-cell or culture tests; agent: Cryptococcus neoformans; measure: MIC

Neighbouring rows are from separate reports. a–b is a range or a potency band. An empty or dashed field is not shown.

structure	strain	value
COc1cc(O)c2c(c1)C(=O)c1c(cc3c(c1O)-c1c(cc(C)c(C(=O)NC(C)C(=O)O)c1O)[C@H](OC1OC(C)C(N(C)C)C(OC(CO)OCCO)C1O)[C@H]3O)C2=O	IAM 4514	1.6 µg/mL
COc1cc2cc(/C=C/C(=O)c3ccc(Cl)cc3)c(Cl)nc2cc1OC	ATCC 32264	>50 µg/mL
C1CCC(C[C@@H]2CN=C3N2C[C@@H](C2CCCCC2)N3CCC23CC4CC(CC(C4)C2)C3)CC1	ATCC 32045	8–16 µg/mL
CC(C)[C@@H](C)/C=C/[C@@H](C)[C@H]1CCC2=C3[C@@H](O)C4OC45C[C@@H](OC(=O)[C@@H](N)[C@@H](OS(=O)(=O)O)C(C)C)CC[C@]5(C)[C@H]3CC[C@@]21C(=O)O	MY2062	>32 µg/mL
O=C(C[n+]1c2ccccc2cc2[nH]c3ccccc3c21)c1ccccc1	ATCC 52657	62.5 µg/mL
CCC(C)CC(C)CCCCCCCCC(=O)N[C@H]1C[C@@H](O)[C@H](NCCN)NC(=O)[C@@H]2[C@@H](O)CCN2C(=O)[C@H]([C@H](O)CCN)NC(=O)[C@H]([C@H](O)[C@@H](O)c2ccc(O)cc2)NC(=O)[C@@H]2C[C@@H](O)CN2C(=O)[C@H]([C@@H](C)O)NC1=O	MY2061	16 µg/mL
COc1cc(O)c2c(c1)C(=O)c1c(cc3c(c1O)-c1c(cc(C)c(C(=O)NC(C)C(=O)O)c1O)[C@H](OC1OC(C)C(O)C1O)[C@H]3O)C2=O	IAM 4514	>100 µg/mL
CC(C)(C)C1CCC(CN2C3=NC[C@H](C4CCCCC4)N3C[C@@H]2C2CCCCC2)CC1	ATCC 32045	4–8 µg/mL
CCCCCCCCCCCCNC1CCc2ccc(OC)cc2C1	-	4 µM
O=C(/C=C/c1ccccc1[N+](=O)[O-])c1ccccc1	ATCC 32264	>50 µg/mL
COc1cc(O)c2c(c1)C(=O)c1c(cc3c(c1O)-c1c(cc(C)c(C(=O)NC(C)C(=O)O)c1O)[C@H](OC1OC(C)C(F)CC1OC1OCC(O)C(O)C1O)[C@H]3O)C2=O	IAM 4514	>100 µg/mL
COc1ccc(C(=O)/C=C/c2cc3cc(OC)c(OC)cc3nc2Cl)cc1OC	ATCC 32264	>50 µg/mL
CCCCCCCCNC1CCc2cc(O)ccc2C1	-	32 µM
CCCCCOc1ccc(-c2ccc(-c3ccc(C(=O)N[C@H]4C[C@@H](O)[C@@H](O)NC(=O)[C@@H]5[C@@H](O)[C@@H](C)CN5C(=O)[C@H]([C@H](C)O)NC(=O)[C@H]([C@H](O)[C@@H](O)c5ccc(O)cc5)NC(=O)[C@@H]5C[C@@H](O)CN5C(=O)[C@H]([C@H](C)O)NC4=O)cc3)cc2)cc1	-	1–128 µg/mL
CC(C)(C)C1CCC(CN2C3=NC[C@H](C4CCCCC4)N3C[C@H]2C2CCCCC2)CC1	ATCC 32045	8–16 µg/mL
CN[C@H]1[C@@H](O[C@@H]2O[C@H](CO)[C@@H](O)[C@H](O)[C@H]2O)[C@H](O)[C@@H](O[C@H]2c3cc(C)c(C(=O)N[C@H](C)C(=O)OC)c(O)c3-c3c(cc4c(c3O)C(=O)c3cc(OC)cc(O)c3C4=O)[C@@H]2O)O[C@H]1C	IAM 4514	3.1 µg/mL
COc1cc(O)c2c(c1)C(=O)c1c(cc3c(c1O)-c1c(cc(C)c(C(=O)NC(CO)C(=O)O)c1O)[C@H](OC1OC(C)C(O)C(OC4OCC(O)C(O)C4O)C1O)C3O)C2=O	IAM 4514	1.6 µg/mL
CC[C@@H]([C@H](C)O)n1ncn(-c2ccc(N3CCN(c4ccc(OC[C@@H]5CO[C@@](Cn6cncn6)(c6ccc(F)cc6F)C5)cc4)CC3)cc2)c1=O	-	0.002–0.25 µg/mL
CCCCCCCCCCCCNC1CCc2cc(OC)ccc2C1	-	8 µM
CCC(C)CC(C)CCCCCCCCC(=O)N[C@H]1C[C@@H](O)[C@H](NCCN)NC(=O)[C@@H]2[C@@H](O)CCN2C(=O)[C@H]([C@H](O)CCN)NC(=O)[C@H]([C@H](O)[C@@H](O)c2ccc(O)cc2)NC(=O)[C@@H]2C[C@@H](O)CN2C(=O)[C@H]([C@@H](C)O)NC1=O	-	2–8 µg/mL
C=C(Cl)/C=C/[C@H](O)CC(=C)C[C@H]1OC2[C@@H](O)[C@]3(O)C[C@@H](O)[C@H](C)[C@H](CCC/C=C\[C@@H]4C[C@@H](O)C[C@]5(C[C@H](OC)CC(CC(=O)[C@@H](C)[C@H](OC(C)=O)[C@@H](C)C(=C)C[C@@H]6C[C@@](C)(O)C[C@]7(C[C@H](OC(C)=O)CC(CC(=O)O[C@@H]([C@@H]1O)[C@H]2C)O7)O6)O5)O4)O3	ATCC66031	0.0195 µg/mL
C[C@H]1[C@H](O)[C@@H](C)/C=C/C=C/C=C/C=C/C=C/C=C/C=C/[C@H](O[C@@H]2O[C@H](C)[C@@H](O)[C@H](N)[C@@H]2O)C[C@@H]2O[C@](O)(C[C@@H](O)C[C@@H](O)CC[C@H](O)[C@@H](O)C[C@@H](O)CC(=O)O[C@H]1C)C[C@H](O)[C@H]2C(=O)O	-	0.016–16 µg/mL
COc1cc(O)c2c(c1)C(=O)c1c(cc3c(c1O)-c1c(cc(C)c(C(=O)NC(C)C(=O)O)c1O)[C@H](OC1OC(C)C(F)C(OC4OCC(O)C(O)C4O)C1O)[C@H]3O)C2=O	IAM 4514	12.5 µg/mL
COc1ccc(/C=C/C(=O)c2ccc(OC)c(OC)c2)cc1OC	ATCC 32264	>50 µg/mL
c1ccc2c(c1)cc1[nH]c3ccccc3c1[n+]2CC1CCCC1	ATCC 52657	62.5 µg/mL
CCCCCCCCCCNC1CCc2cccc(O)c2C1	-	1 µM
CC(=O)O[C@@H]1C[C@@]23C(=O)OC[C@](C)([C@@H]2CC[C@H]2C3=CC[C@@]3(C)[C@H](C(=O)O)[C@@](C)([C@H](C)C(C)C)CC[C@]23C)[C@H]1O[C@@H]1O[C@H](CO)[C@@H](O)[C@H](O)[C@H]1O	MY2061	>64 µg/mL
N#CC(C#N)C(CC(=O)c1ccccc1)c1ccc2ccccc2c1	ATCC 32264	>50 µg/mL
CCN1C2=NC[C@H](Cc3ccccc3)N2C[C@@H]1C1CCCCC1	ATCC 32045	>25 µg/mL
CC(CCC(O)C(C)(O)CO)C1(O)CCC2(C)C3=C(CCC21C)C1(C)CCC(OC(=O)CCC(=O)O)C(C)(C)C1CC3	MY2062	32 µg/mL
C/C=C/C(C)=C/C(C)C(=O)CC1CC(CC(N)=O)CC(=O)O1	KF-33	>100 µg/mL
CC(C)(C)C1CCC(CN2C3=NC[C@H](Cc4ccccc4)N3C[C@@H]2Cc2ccccc2)CC1	ATCC 32045	4–8 µg/mL
CN[C@@H]1[C@H](O[C@@H]2OC[C@@H](O)[C@H](O)[C@H]2O)[C@@H](O)[C@H](O[C@H]2c3cc(C)c(C(=O)N[C@H](C)C(=O)O)c(O)c3-c3c(cc4c(c3O)C(=O)c3cc(OC)cc(O)c3C4=O)[C@@H]2O)O[C@@H]1C	IAM 4514	1.6 µg/mL
O=C(/C=C/c1ccccc1)c1ccccc1	ATCC 32264	>50 µg/mL
CC[n+]1c2ccccc2cc2[nH]c3ccccc3c21	ATCC 52657	31.2 µg/mL
COc1cccc(/C=C/C(=O)c2ccccc2)c1	ATCC 32264	>50 µg/mL
c1ccc(C[C@H]2CN=C3N(CCC45CC6CC(CC(C6)C4)C5)[C@@H](Cc4ccccc4)CN32)cc1	ATCC 32045	16–32 µg/mL
Oc1cccc2c1CC(Nc1ccccc1)CC2	-	16 µM
C1CCC(C[C@@H]2CN3C(=NC[C@H]3C3CCCCC3)N2CCC23CC4CC(CC(C4)C2)C3)CC1	ATCC 32045	16–32 µg/mL
C=C1/C=C(\C)[C@H](CC)OC(=O)[C@H](C)C(=O)C(O)(CO)C/C(OC)=C/[C@@H](C)C1	IAM 4772	0.3 µg/mL
COc1ccc(/C=C/C(=O)c2ccccc2)c(OC)c1	ATCC 32264	>50 µg/mL

For reference, 6 entries again:

| structure | strain | value |
|---|---|---|
| Oc1cccc2c1CC(Nc1ccccc1)CC2 | - | 16 µM |
| CC(=O)O[C@@H]1C[C@@]23C(=O)OC[C@](C)([C@@H]2CC[C@H]2C3=CC[C@@]3(C)[C@H](C(=O)O)[C@@](C)([C@H](C)C(C)C)CC[C@]23C)[C@H]1O[C@@H]1O[C@H](CO)[C@@H](O)[C@H](O)[C@H]1O | MY2061 | >64 µg/mL |
| c1ccc(C[C@H]2CN=C3N(CCC45CC6CC(CC(C6)C4)C5)[C@@H](Cc4ccccc4)CN32)cc1 | ATCC 32045 | 16–32 µg/mL |
| COc1ccc(C(=O)/C=C/c2cc3cc(OC)c(OC)cc3nc2Cl)cc1OC | ATCC 32264 | >50 µg/mL |
| CCCCCCCCCCNC1CCc2cccc(O)c2C1 | - | 1 µM |
| CN[C@@H]1[C@H](O[C@@H]2OC[C@@H](O)[C@H](O)[C@H]2O)[C@@H](O)[C@H](O[C@H]2c3cc(C)c(C(=O)N[C@H](C)C(=O)O)c(O)c3-c3c(cc4c(c3O)C(=O)c3cc(OC)cc(O)c3C4=O)[C@@H]2O)O[C@@H]1C | IAM 4514 | 1.6 µg/mL |